Results on two molecules are retold here after paper PMC8277577 (Nature, 2021).

The target in the experiment is SARS-CoV-2 receptor binding domain (RBD) (SARS-CoV-2, GenBank MN985325.1 …, UniProt P0DTC2). As to the kind of experiment: BLI. The note with it: both partners purified.

The Kd is the free concentration of one partner at which half of the binding sites on the other are occupied at equilibrium, for simple one-to-one binding.

B1: C129 (antibody, V domains shown)
VH: QVQLVESGGGVVQPGRSLRLSCAASGFTFSSYGMNWVRQAPGKGLEWVAVISYDGSNTYYTDSVKGRFTISRDNSKNTLYLQMNSLRVDDTATYYCAKGPRFGWSYRGGSGFDIWGQGTMVTVSS
VL: DIQMTQSPSSLSASVGDRVTITCQASQDISNYLNWYQQKPGKAPKLLIYDASNLETGVPSRFSGSESGTDFTFTISSLQPEDIATYYCQQYDNLPITFGQGTRLEIK
notes: source: recombinant, purified
With B1, the Kd came out at 53.6 nM.

B2: C038 (antibody, V domains shown)
VH: VQLVESGGGVVQPGRSLRLSCAASGFTFNRIAMYWVRQAPGKGLEWVAVISFDGSYEYYAESVKGRFAISRDNSKNTLYLQMNSLRAEDTAVYYCAKSPMGYCTNGVCYPDSWGQGTLVTVSS
VL: NFMLTQPHSVSESPGKTVTISCTGSSGSIASNYVQWYQQRPGSAPTTVIYEDTQRPSGVPDRFSGSIDSSSNSASLTISGLKTEDEADYYCQSYDINSRWVFGGGTKLTVL
notes: source: recombinant, purified
B2 came in with a Kd of 46.7 nM.
